Measured values from several laboratories, pooled; numbers as filed in NIAID ChemDB.

Shared fields: tests in culture; species: HIV-1; cells: MT-2; read-out: EC50

Lines come from different laboratories, so protocols vary. ECn is the concentration giving n% inhibition of infection, replication or growth. a–b is a range or a potency band. An empty or dashed field is not shown.

smiles,strain or isolate,mutations,method,setting,value
C=C(C)[C@@H]1CC[C@]2(CO)CC[C@]3(C)[C@H](CC[C@@H]4[C@@]5(C)CC=C(c6ccc(O)c(F)c6)C(C)(C)[C@@H]5CC[C@]43C)[C@@H]12,NL4-3,Gag P373S,luciferase,,1 µM
Cc1noc(C)c1C(=O)NC[C@H](O)[C@@]12CC[C@]3(C)[C@H](CC[C@@H]4[C@@]5(C)CC[C@H](OC(=O)[C@H]6C[C@@H](C(=O)O)C6(C)C)C(C)(C)[C@@H]5CC[C@]43C)C1=C(C(C)C)C(=O)C2,92HT599,,p24 / ELISA,,<1 µM
COc1ccc2nc(-c3cccc([N+](=O)[O-])c3)ccc2c1,NL4-3,,MTT,,87.86 µM
CC(C)C1=C2[C@H]3CC[C@@H]4[C@@]5(C)CC[C@H](OC(=O)[C@H]6C[C@@H](C(=O)O)C6(C)C)C(C)(C)[C@@H]5CC[C@@]4(C)[C@]3(C)CC[C@@]2(CCNCC(C)(CCCCN)NC(=O)c2ccc(Cl)cc2)CC1=O,92HT599,,p24 / ELISA,,<1 µM
COc1ccc2c(c1)[C@@H](N1CCCC1=O)C[C@@H](c1cccc(N)c1)N2,NL4-3-Luc,,luciferase,,31.3 µM
Nc1ccc(CO[C@H]2C(=O)Nc3ccc(Cl)cc3[C@@]2(C#CC2CC2)C(F)(F)F)cc1,,RT-L100I K103N,,,<3.848 µM
CN1CCN(S(=O)(=O)c2cc(F)ccc2CNC(=O)c2nc3n(c(=O)c2O)CCCOC32CCN(C(=O)OCc3ccccc3)CC2)CC1,NL4-3,,luciferase / reporter gene,,0.01–0.1 µM
COc1cc(OC)c2ccc(-c3cccc([N+](=O)[O-])c3)nc2c1,NL4-3,Delta-VSV-Luc,luciferase,pseudotyped,18.86 µM
Nc1cccc(CO[C@H]2C(=O)Nc3ccc(Cl)cc3[C@@]2(C#CC2CC2)C(F)(F)F)c1,RF,,,,<0.138 µM
Cc1cc(C)c2c(c1)N[C@H](c1cccc([N+](=O)[O-])c1)C[C@@H]2N1CCCC1=O,NL4-3-Luc,,luciferase,,53.77 µM
CC(=O)N[C@H]1C(=O)Nc2ccc(Cl)cc2[C@@]1(C#CC1CC1)C(F)(F)F,RF,,,,<0.917 µM
CC(C)C1=C2[C@H]3CC[C@@H]4[C@@]5(C)CC[C@H](OC(=O)[C@H]6C[C@@H](C(=O)O)C6(C)C)C(C)(C)[C@@H]5CC[C@@]4(C)[C@]3(C)CC[C@@]2([C@@H](O)CNC(=O)[C@H](C)NC(=O)c2ccc(Cl)cc2)CC1=O,92HT599,,p24 / ELISA,,<1 µM
C=C(C)[C@@H]1CC[C@]2(C(=O)O)CC[C@]3(C)[C@H](CC[C@@H]4[C@@]5(C)CC=C(c6ccc(C(=O)O)s6)C(C)(C)[C@@H]5CC[C@]43C)[C@@H]12,NL4-3,Gag P373S,luciferase,,1 µM
CC(C)C1=C2[C@H]3CC[C@@H]4[C@@]5(C)CC[C@H](OC(=O)[C@H]6C[C@@H](C(=O)O)C6(C)C)C(C)(C)[C@@H]5CC[C@@]4(C)[C@]3(C)CC[C@@]2([C@@H](O)CNCC(F)(F)NC(=O)c2ccc(Cl)cc2)CC1=O,92HT599,,p24 / ELISA,,<1 µM
CCCO[C@H]1C(=O)Nc2ccc(Cl)cc2[C@@]1(C#CC1CC1)C(F)(F)F,RF,,,,<0.062 µM
O=C1CCCN1[C@H]1C[C@@H](c2cccc([N+](=O)[O-])c2)Nc2ccc(I)cc21,NL4-3-Luc,,luciferase,,>108 µM
CN(C)C(=O)C(=O)N1CCC2(C1)OCCn1c2nc(C(=O)NCc2ccc(F)cc2)c(O)c1=O,NL4-3,,luciferase / reporter gene,,0.01–0.1 µM
Cc1ccc2c(c1)[C@@H](N1CCCC1=O)C[C@@H](c1cccc(N)c1)N2,NL4-3-Luc,,luciferase,,74.64 µM
CCOC(=O)N1CCC2(CC1)OCCn1c2nc(C(=O)NCc2ccc(F)cc2-n2cnc(C)n2)c(O)c1=O,NL4-3,,luciferase / reporter gene,,0.001–0.01 µM
CC(C)C1=C2[C@H]3CC[C@@H]4[C@@]5(C)CC[C@H](OC(=O)[C@H]6C[C@@H](C(=O)O)C6(C)C)C(C)(C)[C@@H]5CC[C@@]4(C)[C@]3(C)CC[C@@]2([C@@H](O)CNC(=O)C2(N)CCCCC2)CC1=O,92HT599,,p24 / ELISA,,<1 µM
CN(C)S(=O)(=O)N1CCC2(CC1)OCCn1c2nc(C(=O)NCc2ccc(F)cc2)c(O)c1=O,NL4-3,,luciferase / reporter gene,,0.001–0.01 µM
CC(C)C1=C2[C@H]3CC[C@@H]4[C@@]5(C)CC[C@H](OC(=O)[C@H]6C[C@@H](C(=O)O)C6(C)C)C(C)(C)[C@@H]5CC[C@@]4(C)[C@]3(C)CC[C@@]2(CC(=O)N[C@@H](C)c2ccccc2)CC1=O,92HT599,,p24 / ELISA,,<1 µM
O=C1Nc2ccc(Cl)cc2[C@@](C#CC2CC2)(C(F)(F)F)[C@H]1OCC1CC1,RF,,,,<0.13 µM
CC(C)C1=C2[C@H]3CC[C@@H]4[C@@]5(C)CC[C@H](OC(=O)[C@H]6C[C@@H](C(=O)O)C6(C)C)C(C)(C)[C@@H]5CC[C@@]4(C)[C@]3(C)CC[C@@]2(CC(=O)NC[C@@H]2CCCN2)CC1=O,92HT599,,p24 / ELISA,,<1 µM
O=C1Nc2ccc(Cl)cc2[C@@](C#CC2CC2)(C(F)(F)F)[C@H]1OCc1ccncc1,,RT-K103N,,,<0.05 µM
C=C(C)[C@@H]1CC[C@]2(CO)CC[C@]3(C)[C@H](CC[C@@H]4[C@@]5(C)CC=C(c6ccc(C(=O)O)c(F)c6)C(C)(C)[C@@H]5CC[C@]43C)[C@@H]12,NL4-3,Gag P373S,luciferase,,1 µM
O=C1CCCN1[C@H]1C[C@@H](c2cccc([N+](=O)[O-])c2)Nc2ccccc21,NL4-3,,MTT,,>50 µM
C=C(C)[C@@H]1CC[C@]2(C(=O)O)CC[C@]3(C)[C@H](CC[C@@H]4[C@@]5(C)CC=C(c6ccc(C(=O)NS(=O)(=O)C(C)C)cc6)C(C)(C)[C@@H]5CC[C@]43C)[C@@H]12,NL4-3,Gag P373S,luciferase,,1 µM
CS(=O)(=O)N1CCC2(CC1)OCCCn1c2nc(C(=O)NCc2ccc(F)cc2)c(O)c1=O,NL4-3,,luciferase / reporter gene,,0.001–0.01 µM

Repeating the first 3 entries:

smiles	strain or isolate	mutations	method	setting	value
C=C(C)[C@@H]1CC[C@]2(CO)CC[C@]3(C)[C@H](CC[C@@H]4[C@@]5(C)CC=C(c6ccc(O)c(F)c6)C(C)(C)[C@@H]5CC[C@]43C)[C@@H]12	NL4-3	Gag P373S	luciferase		1 µM
Cc1noc(C)c1C(=O)NC[C@H](O)[C@@]12CC[C@]3(C)[C@H](CC[C@@H]4[C@@]5(C)CC[C@H](OC(=O)[C@H]6C[C@@H](C(=O)O)C6(C)C)C(C)(C)[C@@H]5CC[C@]43C)C1=C(C(C)C)C(=O)C2	92HT599		p24 / ELISA		<1 µM
COc1ccc2nc(-c3cccc([N+](=O)[O-])c3)ccc2c1	NL4-3		MTT		87.86 µM